Pooled drug test results. Numbers come from NIAID ChemDB, via PubChem.

Common to all: tests in culture; species: HIV-1; read by: cytopathic effect; measure: EC50

Conditions beyond the fields shown may differ between rows. ECn is the concentration giving n% inhibition of infection, replication or growth.

CC(=O)Nc1nc2c(ncn2Cc2cn(COCCOC(C)=O)nn2)c(=O)[nH]1 ; cell line: MT-4 ; strain or isolate: IIIB ; value: >100 µg/mL
CSCC[C@H](NS(=O)(=O)c1ccc(C)cc1)c1n[nH]c(=S)o1 ; cell line: MT-4 ; strain or isolate: IIIB ; value: >71 µg/mL
CC(=O)OCCOCn1cc(Cn2cc(Cl)c(=O)[nH]c2=O)nn1 ; cell line: MT-4 ; strain or isolate: IIIB ; value: >100 µg/mL
Cc1cn([C@H]2C[C@H](N=[N+]=[N-])[C@@H](CO)O2)c(=O)[nH]c1=O ; cell line: C8166 ; value: 9 µM
CC1(C)[C@@H](CCO)C[C@H]1n1nnc2c(Cl)nc(N)nc21 ; cell line: MT-4 ; value: >200 µg/mL
Nc1ccn(C2CC(CO)(CO)C2)c(=O)n1 ; cell line: CEM ; strain or isolate: LAV ; value: >3 µg/mL
COc1ccc(S(=O)(=O)Nc2ccc(-c3nnc(-c4ccc(C)cc4)o3)cc2)cc1 ; cell line: MT-4 ; strain or isolate: IIIB ; value: >94 µg/mL
COc1cc(C)cc2c(-c3cccc([N+](=O)[O-])c3)cc(-c3cc(-c4cccc([N+](=O)[O-])c4)c4cc(C)cc(OC)c4c3O)c(O)c12 ; cell line: CEM + CEM-SS ; strain or isolate: RF ; value: >100 µM
CC[C@H](O)C1=C[C@@H](n2cnc3c(N)ncnc32)[C@H](O)[C@@H]1O ; cell line: CEM ; value: >200 µg/mL
Cc1cn([C@@H]2O[C@H](C3CO[Si](C(C)C)(C(C)C)O[Si](C(C)C)(C(C)C)O3)C3(OS(=O)(=O)C=C3N)[C@H]2O[Si](C)(C)C(C)(C)C)c(=O)[nH]c1=O ; cell line: MT-4 ; strain or isolate: IIIB ; value: >26.7 µM
COc1cccc(N2C(=O)CSC2c2c(Cl)cccc2Cl)c1 ; cell line: MT-4 ; strain or isolate: IIIB ; value: 1.41 µM
C#CCn1ccc(=O)[nH]c1=O ; cell line: MT-4 ; strain or isolate: IIIB ; value: >100 µg/mL
COc1cccc2c(-c3cccc(N)c3)cc(-c3cc(-c4cccc(N)c4)c4cccc(OC)c4c3O)c(O)c12 ; cell line: CEM + CEM-SS ; strain or isolate: RF ; value: >100 µM
O=c1ccn(C2CC(CO)(CO)C2)c(=O)[nH]1 ; cell line: CEM ; strain or isolate: LAV ; value: >30 µg/mL
CC1(C)[C@@H](CCO)C[C@H]1n1nnc2c(N)ncnc21 ; cell line: MT-4 ; value: >100 µg/mL
Cc1ccc(C)c(CS(=O)(=O)c2cccc[n+]2[O-])c1 ; cell line: CEM ; strain or isolate: MN ; value: 10 µg/mL
CC1(C)[C@@H](CCO)C[C@H]1n1nnc2c(N)nc(N)nc21 ; cell line: MT-4 ; value: >100 µg/mL
CC(C)CCC[C@@H](C)[C@H]1CC[C@H]2[C@@H]3CC[C@H]4C[C@@H](CCC=C(c5cc(Cl)c(O)c(C(=O)O)c5)c5cc(Cl)c(O)c(C(=O)O)c5)CC[C@]4(C)[C@H]3CC[C@]12C ; cell line: CEM + CEM-SS ; strain or isolate: IIIB ; value: 3 µM
CC(C)(C)c1ccc(C(Cl)c2ccnc(Nc3ccc(C#N)cc3)n2)cc1 ; cell line: MT-4 ; strain or isolate: IIIB ; mutations: K103N + Y181C ; value: 32.9 µM
Nc1ncnc2c1ncn2[C@@H]1O[C@H](OCP(=O)(O)O)C=C1F ; cell line: MT-2 ; mutations: RT-K65R ; value: 14.76 µM
Cc1cn([C@H]2C=C[C@@H](CO)O2)c(=O)[nH]c1=O ; cell line: MT-4 ; value: 1.2 µM
C#C[C@@H](O)C1=C[C@@H](n2cnc3c(N)ncnc32)[C@H](O)[C@@H]1O ; cell line: CEM ; value: >40 µg/mL
O=C1CSC(c2c(Cl)cccc2Cl)N1c1cccc(Cl)c1 ; cell line: MT-4 ; strain or isolate: IIIB ; value: 0.31 µM
COC(=O)[C@H](C)NP(=O)(C[C@H]1O[C@@H](n2cc(C)c(=O)[nH]c2=O)C[C@@H]1N=[N+]=[N-])O[C@H]1C[C@H](n2cc(C)c(=O)[nH]c2=O)O[C@@H]1CO ; cell line: MT-4 ; strain or isolate: IIIB ; value: 0.34 µg/mL
Cc1ccc(C(C)S(=O)(=O)c2c(C)ccc[n+]2[O-])c(C)c1 ; cell line: CEM ; mutations: RT-Y181C ; value: 50 µg/mL
COP(=O)(c1cc(C)cc(CCC#N)c1)c1c(C(N)=O)[nH]c2ccc(Cl)c(F)c12 ; cell line: MT-4 ; strain or isolate: BH10 ; mutations: Y181C ; value: 0.0018 µM
N#Cc1ccc(Nc2nccc(C(Cl)c3ccc(Br)cc3)n2)cc1 ; cell line: MT-4 ; strain or isolate: IIIB ; mutations: K103N + Y181C ; value: 32.5 µM
COc1cc(OC)c2c(O)c(-c3cc(-c4cccc(N)c4)c4cc(OC)cc(OC)c4c3O)cc(-c3cccc(N)c3)c2c1 ; cell line: CEM + CEM-SS ; strain or isolate: RF ; value: >100 µM
COc1ccc(S(=O)(=O)NCCCc2n[nH]c(=S)o2)cc1 ; cell line: MT-4 ; strain or isolate: IIIB ; value: >110 µg/mL
C=C[C@@H](O)C1=C[C@@H](n2cnc3c(N)ncnc32)[C@H](O)[C@@H]1O ; cell line: CEM ; value: >40 µg/mL
COc1cc(OC)c2c(O)c(-c3cc(-c4ccc(O)cc4O)c4cc(OC)cc(OC)c4c3O)cc(-c3ccc(O)cc3O)c2c1 ; cell line: CEM + CEM-SS ; strain or isolate: RF ; value: >100 µM
Cc1cc(C(Cl)c2ccc(C(C)(C)C)cc2)nc(Nc2ccc(C#N)cc2)n1 ; cell line: MT-4 ; strain or isolate: IIIB ; value: 0.435 µM
Cc1ccc(C)c(C(Cl)S(=O)(=O)c2cc(C)cc[n+]2[O-])c1 ; cell line: CEM ; mutations: RT-Y181C ; value: >4 µg/mL
CC1(C)[C@@H](CCO)C[C@H]1n1cnc2c(=O)[nH]cnc21 ; cell line: CEM ; value: >100 µg/mL
O=C(O)CCC(CCC(=O)O)(CCC(=O)O)NC(=O)CCC(CCC(=O)NC(CCC(=O)O)(CCC(=O)O)CCC(=O)O)(CCC(=O)NC(CCC(=O)O)(CCC(=O)O)CCC(=O)O)NC(=O)CCCOC(=O)C1(C(=O)OCCCC(=O)NC(CCC(=O)NC(CCC(=O)O)(CCC(=O)O)CCC(=O)O)(CCC(=O)NC(CCC(=O)O)(CCC(=O)O)CCC(=O)O)CCC(=O)NC(CCC(=O)O)(CCC(=O)O)CCC(=O)O)C2c3cc4c5c6c3-c3c(cc7c8c3C6C3c6c-5c(cc5ccc9cc(c-8c3c9c65)C7)C4)C21 ; cell line: PBMC ; strain or isolate: LAI ; value: 0.22 µM
COc1cc(OC)c2c(O)c(-c3cc(-c4cccc([N+](=O)[O-])c4)c4cc(OC)cc(OC)c4c3O)cc(-c3cccc([N+](=O)[O-])c3)c2c1 ; cell line: CEM + CEM-SS ; strain or isolate: RF ; value: >100 µM
Cc1ccc(C)c(CSc2c(Cl)ccc[n+]2[O-])c1 ; cell line: CEM ; mutations: RT-K103N ; value: 4.8 µg/mL
Cc1cn([C@@H]2O[C@H](C(CO[Si](C)(C)C(C)(C)C)O[Si](C)(C)C(C)(C)C)C3(OS(=O)(=O)C=C3N)[C@H]2O[Si](C)(C)C(C)(C)C)c(=O)[nH]c1=O ; cell line: MT-4 ; strain or isolate: IIIB ; value: >136 µM
COc1cc(OC)c2c(O)c(-c3cc(-c4ccc5c(c4)OCO5)c4cc(OC)cc(OC)c4c3O)cc(-c3ccc4c(c3)OCO4)c2c1 ; cell line: CEM + CEM-SS ; strain or isolate: RF ; value: >100 µM
CC(=O)OCCOCn1cc(Cn2cnc3c(N)ncnc32)nn1 ; cell line: MT-4 ; strain or isolate: IIIB ; value: >100 µg/mL
Cc1cccc(N2C(=O)CSC2c2c(F)cccc2Cl)c1 ; cell line: MT-4 ; strain or isolate: IIIB ; value: 0.21 µM
Cc1cn([C@H]2C[C@H](N=[N+]=[N-])[C@@H](CO)O2)c(=O)[nH]c1=O ; cell line: C8166 ; value: 0.00951 µM
C=C1CN(S(=O)(=O)c2ccc(C)cc2)CCCN(Cc2ccccc2)CCCN(S(=O)(=O)c2ccc(C)cc2)C1 ; cell line: SupT1 ; strain or isolate: IIIB ; value: 1.5 µM
C[C@@H]1C2[C@H](O)C[C@@]34C=C[C@@](C)(CCC3[C@@]23CC[C@@H]1OC3=O)C4 ; cell line: C8166 ; value: 11.14 µM
O=C1CSC(c2c(F)cccc2F)N1c1ccccc1 ; cell line: MT-4 ; strain or isolate: IIIB ; value: 0.4 µM
CC(=O)OCCOCn1cc(Cn2ccc(=O)[nH]c2=O)nn1 ; cell line: MT-4 ; strain or isolate: IIIB ; value: >100 µg/mL